Assay results from paper PMC9017349, “Spiropyrimidinetriones: a Class of DNA Gyrase Inhibitors with Activity against Mycobacterium tuberculosis and without Cross-Resistance to Fluoroquinolones” (Antimicrobial Agents and Chemotherapy, 2022).
Values after ≈ are worked out from the molar mass of the structure shown.

Experiments:
[1] = tested on: M. tuberculosis MmpL3, G758A/G253E; type: cell-based, Mycobacterium tuberculosis
[2] = tested on: M. tuberculosis MmpL3, G253E; type: cell-based, Mycobacterium tuberculosis
[3] = tested on: M. tuberculosis ATCC 35838 (Rif resistance); experiment: microbe, parasite or virus in culture; type: cell-based; details: Mycobacterium tuberculosis, ATCC35838
[4] = tested on: M. tuberculosis QcrB D317T; type: cell-based, Mycobacterium tuberculosis
[5] = tested on: M. tuberculosis ATCC 3583 (INH resistance); experiment: microbe, parasite or virus in culture; type: cell-based; details: Mycobacterium tuberculosis, ATCC3583, read-out: MIC90, ATCC 3583 (INH resistance)
[6] = tested on: M. tuberculosis ATCC 35826 (CS resistance); experiment: microbe, parasite or virus in culture; type: cell-based; details: Mycobacterium tuberculosis, ATCC35826

Structure (SMILES): Cc1nnc(-c2noc3c(F)c4c(cc23)CC2(C(=O)NC(=O)NC2=O)[C@H]2[C@H](C)O[C@H](C)CN42)o1 [Compound 22]
- MIC90, MmpL3, G758A/G253E [1]: 2.0 µM (≈ 0.941 µg/mL)
- MIC90, MmpL3, G253E [2]: 2.0 µM (≈ 0.941 µg/mL)
- MIC90 [3]: 2 µM (≈ 0.941 µg/mL)
- MIC90, QcrB D317T [4]: 3.9 µM (≈ 1.83 µg/mL)
- MIC90 [5]: 3.9 µM (≈ 1.83 µg/mL)
- MIC90 [6]: 2 µM (≈ 0.941 µg/mL)
